Experimental findings from patent US20250243261A1 (CZ BIOHUB SF, published 2025) are described below.

The target in assay [1] is SARS-CoV-2 Beta Spike on pseudotyped lentivirus (SARS-CoV-2 Beta variant). The experiment in a line: cell-based or functional assay.
Assay [2] concerns the target SARS-CoV-2 D614G Spike on pseudotyped lentivirus (SARS-CoV-2). Put plainly: cell-based or functional assay.

Residue numbers refer to the chain shown, from its start. Names may count otherwise.

B1: C143 WT IgG (antibody, V domains shown)
VH: EVQLVESGGGLVQPGGSLRLSCAASGFSVSTKYMTWVRQAPGKGLEWVSVLYSGGSDYYADSVKGRFTISRDNSKNALYLQMNSLRVEDTGVYYCARDSSEVRDHPGHPGRSVGAFDIWGQGTMVTVSS
VL: QSALTQPASVSGSPGQSITISCTGTSNDVGSYTLVSWYQQYPGKAPKLLIFEGTKRSSGISNRFSGSKSGNTASLTISGLQGEDEADYYCCSYAGASTFVFGGGTKLTVL
As for B1, the “Beta pseudotyped lentivirus IC50” value in assay [1] came to 6000 µg/mL. Also, the “D614G pseudotyped lentivirus IC50” value in assay [2] was determined as 1400 µg/mL.

B2: C143 VL T33N-G53V IgG (antibody, V domains shown)
VH: B1 VH
VL: B1 VL with T33N, G53V
With B2, the “Beta pseudotyped lentivirus IC50” value in assay [1] is 300 µg/mL. For the same molecule, the “D614G pseudotyped lentivirus IC50” value in assay [2] was 80 µg/mL.
